## PSTVd stem 15 mutant pool in Nicotiana benthamiana

The pool varies stem 15 of the PSTVd intermediate strain in the pattern CUGGAGCGAUNGNNUNNG; wild type is CUGGAGCGAUCGCUUCGG (upper and lower strand joined, each 5' to 3', the first 9 letters being the upper strand).

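A pool of all variants was put on leaves of three Nicotiana benthamiana plants. Progeny were sequenced from the inoculated region (day 5), the margin of the inoculated leaf (day 10) and systemic leaves (day 12).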

Values are reads per thousand in the sample; higher means more abundant, 0 means not found.
Each site shows the three plants.
"Pool" is the share in the plasmid pool used as inoculum, on the same scale.
The inoculated region was read from the minus strand, the other sites from the plus strand.
The authors trace changes outside the varied positions to PCR and sequencing errors or to mutation in the plant; presence does not show that a variant is infectious alone.
Samples held 36,693 to 63,082 reads, so the smallest values rest on one or two reads.
Wild type was 10.2 per thousand in the pool and the most common sequence in every sample (inoculated region 285, 367, 312; leaf margin 785, 865, 782; systemic leaves 854, 898, 915).

| sequence | pool | inoculated region | leaf margin | systemic leaves |
|---|---|---|---|---|
| AUGGAGCGAUAGCUUUCG | 0.0162 | 0 / 0 / 0 | 0 / 0 / 0 | 0 / 0 / 0 |
| AUGGAGCGAUAGGUUCGG | 0.0162 | 0 / 0 / 0 | 0 / 0 / 0 | 0 / 0 / 0 |
| CCGGAGCGAUCGCCUCAG | 0.0162 | 0 / 0 / 0 | 0 / 0 / 0 | 0 / 0 / 0 |
| CUGGAGAGAUCGUUUCUG | 0.0162 | 0 / 0 / 0 | 0 / 0 / 0 | 0 / 0 / 0 |
| CUGGAGAGAUUGGGUCUG | 0.0162 | 0 / 0 / 0 | 0 / 0 / 0 | 0 / 0 / 0 |
| CUGGAGCGAUAGACUACG | 0.857 | 0.333 / 0.272 / 0.279 | 0.0827 / 0.0545 / 0.0317 | 0 / 0 / 0.0199 |
| CUGGAGCGAUAGACUGUG | 0.889 | 0.294 / 0.168 / 0.205 | 0.0414 / 0.0273 / 0.0159 | 0 / 0 / 0 |
| CUGGAGCGAUAGAGUGAG | 0.679 | 0.294 / 0.251 / 0.298 | 0.0827 / 0.0273 / 0.0634 | 0 / 0 / 0 |
| CUGGAGCGAUAGAGUGUG | 0.840 | 0.254 / 0.230 / 0.316 | 0.0827 / 0.0273 / 0.0159 | 0 / 0 / 0 |
| CUGGAGCGAUAGAGUUGG | 0.824 | 0.274 / 0.230 / 0.335 | 0.0620 / 0.0545 / 0 | 0 / 0 / 0 |
| CUGGAGCGAUAGCAUAAG | 0.857 | 0.372 / 0.272 / 0.279 | 0.0827 / 0.0273 / 0.0476 | 0 / 0 / 0 |
| CUGGAGCGAUAGCCUAGG | 0.986 | 0.430 / 0.168 / 0.223 | 0.124 / 0.0273 / 0 | 0 / 0 / 0 |
| CUGGAGCGAUAGCCUUUG | 0.776 | 0.391 / 0.398 / 0.335 | 0.165 / 0.0545 / 0 | 0 / 0 / 0 |
| CUGGAGCGAUAGCGUAAG | 1.03 | 0.176 / 0.314 / 0.316 | 0 / 0.0273 / 0.0159 | 0 / 0 / 0 |
| CUGGAGCGAUAGCGUUCG | 0.954 | 0.235 / 0.188 / 0.372 | 0.103 / 0.0273 / 0.0317 | 0 / 0 / 0 |
| CUGGAGCGAUAGCGUUGG | 0.905 | 0.235 / 0.126 / 0.335 | 0.0827 / 0 / 0.0634 | 0 / 0 / 0 |
| CUGGAGCGAUAGCUUAAG | 0.986 | 0.176 / 0.230 / 0.372 | 0.0207 / 0.0545 / 0.0159 | 0 / 0 / 0 |
| CUGGAGCGAUAGCUUCCG | 1.05 | 0.176 / 0.335 / 0.335 | 0.0207 / 0.0273 / 0.0317 | 0 / 0 / 0 |
| CUGGAGCGAUAGCUUUCG | 0.776 | 0.176 / 0.209 / 0.279 | 0.0827 / 0 / 0 | 0 / 0 / 0 |
| CUGGAGCGAUAGGAUAAG | 0.808 | 0.254 / 0.356 / 0.316 | 0.0620 / 0 / 0.0317 | 0 / 0 / 0 |
| CUGGAGCGAUAGGCUCCG | 1.03 | 0.313 / 0.293 / 0.261 | 0.0827 / 0.0818 / 0.0317 | 0 / 0 / 0 |
| CUGGAGCGAUAGGGUCAG | 0.905 | 0.313 / 0.188 / 0.391 | 0.0414 / 0.0545 / 0.0159 | 0 / 0 / 0 |
| CUGGAGCGAUAGUAUAUG | 0.760 | 0.274 / 0.251 / 0.391 | 0.0414 / 0.0273 / 0.0159 | 0 / 0 / 0 |
| CUGGAGCGAUAGUCUACG | 2.39 | 0.861 / 1.49 / 0.949 | 0 / 0.0818 / 0 | 0 / 0 / 0.0199 |
| CUGGAGCGAUAGUGUCGG | 0.743 | 0.352 / 0.293 / 0.261 | 0.0620 / 0.0545 / 0.0159 | 0 / 0 / 0 |
| CUGGAGCGAUAGUUUGCG | 0.857 | 0.313 / 0.209 / 0.242 | 0.0620 / 0.0273 / 0.0317 | 0 / 0 / 0 |
| CUGGAGCGAUCCCUUCGG | 0.0162 | 0.0391 / 0.0838 / 0.0186 | 0.0207 / 0 / 0.0476 | 0 / 0.0443 / 0.0199 |
| CUGGAGCGAUCGACUGAG | 0.889 | 0.176 / 0.419 / 0.261 | 0 / 0.109 / 0 | 0 / 0 / 0 |
| CUGGAGCGAUCGAUUCCG | 1.42 | 0.470 / 0.503 / 0.391 | 0.0414 / 0.109 / 0.0317 | 0 / 0 / 0 |
| CUGGAGCGAUCGCGUUAG | 0.921 | 0.196 / 0.293 / 0.261 | 0.0414 / 0 / 0.0317 | 0 / 0 / 0 |
| CUGGAGCGAUCGCUUAAG | 0.776 | 0.235 / 0.272 / 0.223 | 0.103 / 0 / 0.0159 | 0 / 0 / 0 |
| CUGGAGCGAUCGCUUCAG | 1.07 | 21.7 / 55.6 / 19.2 | 24.7 / 17.3 / 4.44 | 11.3 / 14.5 / 6.52 |
| CUGGAGCGAUCGCUUCCG | 0.905 | 0.235 / 0.293 / 0.354 | 0.0414 / 0.0545 / 0 | 0.0594 / 0.0443 / 0.0598 |
| CUGGAGCGAUCGGAUCAG | 0.727 | 0.313 / 0.209 / 0.298 | 0.0620 / 0.0273 / 0.0159 | 0 / 0 / 0 |
| CUGGAGCGAUCGGAUCGG | 0.954 | 0.196 / 0.314 / 0.354 | 0.0414 / 0.0273 / 0 | 0 / 0 / 0 |
| CUGGAGCGAUCGGAUGUG | 1.23 | 0.274 / 0.147 / 0.465 | 0.0620 / 0.0273 / 0.0159 | 0 / 0 / 0 |
| CUGGAGCGAUCGGGUUAG | 0.905 | 0.391 / 0.147 / 0.168 | 0 / 0 / 0.0159 | 0 / 0 / 0 |
| CUGGAGCGAUCGGUUUAG | 1.55 | 0.607 / 1.07 / 0.447 | 0 / 0.136 / 0.0634 | 0 / 0 / 0.0199 |
| CUGGAGCGAUCGUAUGGG | 1.07 | 0.294 / 0.126 / 0.372 | 0.0207 / 0.0545 / 0.0159 | 0 / 0 / 0 |
| CUGGAGCGAUCGUCUAUG | 0.857 | 0.333 / 0.377 / 0.484 | 0.0620 / 0.0273 / 0.0317 | 0 / 0 / 0 |
| CUGGAGCGAUCGUCUCAG | 0.582 | 2.25 / 1.19 / 0.261 | 0.103 / 0.0545 / 0 | 0 / 0 / 0 |
| CUGGAGCGAUCGUUUUCG | 0.808 | 0.352 / 0.230 / 0.223 | 0.103 / 0.0273 / 0.0476 | 0 / 0 / 0 |
| CUGGAGCGAUCGUUUUUG | 0.873 | 0.235 / 0.272 / 0.391 | 0 / 0.0818 / 0.0317 | 0 / 0 / 0 |
| CUGGAGCGAUGGACUCCG | 0.970 | 0.215 / 0.188 / 0.261 | 0 / 0.0818 / 0.0476 | 0 / 0 / 0 |
| CUGGAGCGAUGGACUGAG | 2.89 | 3.46 / 3.75 / 2.21 | 0.0414 / 1.96 / 0.0317 | 0 / 0 / 0 |
| CUGGAGCGAUGGAUUCAG | 0.840 | 0.254 / 0.209 / 0.186 | 0.0414 / 0.0545 / 0 | 0 / 0 / 0 |
| CUGGAGCGAUGGAUUUAG | 0.986 | 0.333 / 0.293 / 0.261 | 0.0414 / 0.136 / 0 | 0 / 0 / 0 |
| CUGGAGCGAUGGCGUCCG | 0.776 | 0.294 / 0.230 / 0.242 | 0.103 / 0 / 0.0159 | 0 / 0 / 0 |
| CUGGAGCGAUGGCUUAAG | 0.760 | 0.235 / 0.251 / 0.186 | 0.0827 / 0.0545 / 0.0159 | 0 / 0 / 0 |
| CUGGAGCGAUGGCUUAGG | 1.18 | 0.254 / 0.272 / 0.354 | 0.0620 / 0 / 0.0159 | 0 / 0 / 0 |
| CUGGAGCGAUGGGAUAUG | 0.970 | 0.352 / 0.314 / 0.428 | 0.124 / 0.0545 / 0 | 0 / 0 / 0 |
| CUGGAGCGAUGGGAUUGG | 0.840 | 0.235 / 0.272 / 0.242 | 0.0414 / 0.0545 / 0 | 0 / 0 / 0 |
| CUGGAGCGAUGGGGUAAG | 0.711 | 0.274 / 0.293 / 0.372 | 0.103 / 0.0273 / 0.0159 | 0 / 0 / 0 |
| CUGGAGCGAUGGUAUAUG | 1.07 | 0.372 / 0.168 / 0.354 | 0.0620 / 0.0818 / 0 | 0 / 0 / 0 |
| CUGGAGCGAUGGUCUCCG | 0.808 | 0.235 / 0.230 / 0.335 | 0.0207 / 0.0545 / 0 | 0 / 0 / 0 |
| CUGGAGCGAUGGUCUGGG | 1.21 | 0.861 / 1.47 / 0.763 | 0.0620 / 0.0273 / 0.0634 | 0 / 0.288 / 0 |
| CUGGAGCGAUGGUCUUUG | 0.760 | 1.90 / 1.07 / 1.49 | 0.0827 / 0.0545 / 0 | 0 / 0 / 0 |
| CUGGAGCGAUGGUUUCCG | 0.873 | 0.235 / 0.230 / 0.447 | 0.0207 / 0.0545 / 0.0159 | 0 / 0 / 0 |
| CUGGAGCGAUGGUUUGUG | 0.857 | 0.294 / 0.293 / 0.223 | 0 / 0.0545 / 0.0159 | 0 / 0 / 0 |
| CUGGAGCGAUUGAAUGAG | 1.08 | 0.176 / 1.15 / 0.242 | 0.124 / 0.0545 / 0.0317 | 0 / 0 / 0 |
| CUGGAGCGAUUGAUUAGG | 0.986 | 0.196 / 0.209 / 0.242 | 0.0620 / 0.0273 / 0.0317 | 0 / 0 / 0 |
| CUGGAGCGAUUGAUUGUG | 2.49 | 1.88 / 1.53 / 2.33 | 0.0414 / 0.0273 / 0.0159 | 0 / 0 / 0.0598 |
| CUGGAGCGAUUGCUUCAG | 0.840 | 0.254 / 0.356 / 0.279 | 0.103 / 0.0273 / 0.0159 | 0 / 0 / 0 |
| CUGGAGCGAUUGCUUUGG | 0.937 | 0.254 / 0.126 / 0.372 | 0.0207 / 0 / 0 | 0 / 0 / 0 |
| CUGGAGCGAUUGGAUGCG | 0.695 | 0.254 / 0.230 / 0.409 | 0.103 / 0.0273 / 0.0476 | 0 / 0 / 0 |
| CUGGAGCGAUUGGCUUAG | 0.889 | 1.84 / 1.19 / 1.69 | 0.600 / 0.491 / 0.856 | 0.772 / 0.620 / 0.538 |
| CUGGAGCGAUUGGGUCGG | 1.94 | 1.90 / 1.63 / 1.94 | 0.0827 / 0.0545 / 0 | 0 / 0 / 0 |
| CUGGAGCGAUUGUCUAAG | 0.776 | 2.11 / 0.942 / 1.25 | 0.765 / 0.354 / 1.11 | 0.931 / 0.554 / 0.339 |
| CUGGAGCGAUUGUGUCAG | 0.889 | 1.96 / 0.921 / 1.71 | 0.600 / 0.0545 / 0.888 | 0 / 0 / 0 |
| CUGGAGCGAUUGUGUGUG | 0.760 | 0.294 / 0.314 / 0.149 | 0.0827 / 0.0273 / 0.0159 | 0 / 0 / 0 |
| CUGGAGCGAUUGUUUGCG | 0.857 | 0.313 / 0.293 / 0.205 | 0.0620 / 0 / 0.0317 | 0 / 0 / 0 |
| CUGGAGCGUUAGACUAAG | 0.0162 | 0 / 0 / 0 | 0 / 0 / 0 | 0 / 0 / 0 |
| CUGUAGCGAUAGGAUCGG | 0.0162 | 0 / 0 / 0 | 0 / 0 / 0 | 0 / 0 / 0 |

The opening 4 entries, copied out:

| sequence | pool | inoculated region | leaf margin | systemic leaves |
|---|---|---|---|---|
| AUGGAGCGAUAGCUUUCG | 0.0162 | 0 / 0 / 0 | 0 / 0 / 0 | 0 / 0 / 0 |
| AUGGAGCGAUAGGUUCGG | 0.0162 | 0 / 0 / 0 | 0 / 0 / 0 | 0 / 0 / 0 |
| CCGGAGCGAUCGCCUCAG | 0.0162 | 0 / 0 / 0 | 0 / 0 / 0 | 0 / 0 / 0 |
| CUGGAGAGAUCGUUUCUG | 0.0162 | 0 / 0 / 0 | 0 / 0 / 0 | 0 / 0 / 0 |

Data from the supplement of Wu et al. 2024, doi:10.1371/journal.ppat.1012142.